Pooled drug test results. Numbers come from NIAID ChemDB, via PubChem.

Shared fields: growth or infection tests

Neighbouring rows are from separate reports. Two numbers with a dash give a range or band. ECn: concentration that inhibits the pathogen or its effect by n%. Inhibition is in % at the dose shown (toxicity tests: loss of growth or viability). Blank or dashed fields: not listed here. MIC50, MIC90 and the like: level of inhibition, or share of isolates inhibited.

smiles	conditions	read by	species	tested at	strain	measure	result
NNC(=O)c1ccncc1	-	-	Mycobacterium avium complex	-	N-976 (HIV+)	MIC	64 µg/mL
CC(C)C(C)NCCNC(C)C(C)C	-	-	Mycobacterium smegmatis	-	ATCC 607	EC50	>250 µg/mL
COc1ccccc1SCC1Cc2cn(-c3ccccc3)c3cccc(c23)C(=O)O1	-	visual reading	Mycobacterium spp.	-	MC2 6230	EC50	>100 µg/mL
CCCO/N=C1\[C@H](C)CC(C)(O)[C@H](O[C@@H]2O[C@H](C)C[C@H](N(C)C)[C@H]2O)[C@@H](C)[C@H](OC2C[C@@](C)(OC)[C@@H](O)[C@H](C)O2)[C@@H](C)C(=O)O[C@H](CC)[C@@](C)(O)[C@H](O)[C@H]1C	-	-	Mycobacterium avium complex	-	20039 (clarithromycin-susceptible)	MIC	1.56 µg/mL
CO[C@@]1(NC(=O)Cn2cnnn2)C(=O)N2C(C(=O)O)=C(CSc3nnc(C)s3)CSC21	-	-	Mycobacterium fortuitum	-	AO5	MIC	50 µg/mL
CC(C)NC/C=C/CN(C/C=C/CNC(C)C)C(C)C	-	-	Mycobacterium smegmatis	1000 µg/mL	ATCC 607	inhibition	0%
CCCCC(=O)O[C@H]1[C@H](C)OC(O[C@H]2[C@H](C)[C@@H](O[C@@H]3O[C@H](C)C[C@H](N(C)C)[C@H]3O)C(C)(O)C[C@@H](C)/C(=N\OCCCOc3ccccc3)[C@H](C)[C@@H](O)[C@](C)(O)[C@@H](CC)OC(=O)[C@@H]2C)C[C@@]1(C)OC	-	-	Mycobacterium avium complex	-	20092 (clarithromycin-resistant)	MIC	1.56 µg/mL
O=C1OC(Cn2cc(-c3ccccc3F)nn2)Cc2cn(-c3ccccc3)c3cccc1c23	-	visual reading	Mycobacterium spp.	-	MC2 6230	EC50	>100 µg/mL
O=C(NNC(=O)c1ccncc1)Nc1cc(Cl)cc(Cl)c1	7 d	broth dilution	Mycobacterium kansasii	-	My 235/80	MIC100	125 µM
CO[C@H]1/C=C/O[C@@]2(C)Oc3c(C)c(O)c4c(O)c(c5c(c4c3C2=O)NC2(CCN(CC(C)C)CC2)N=5)=NC(=O)/C(C)=C\C=C\[C@H](C)[C@H](O)[C@@H](C)[C@@H](O)[C@@H](C)[C@H](OC(C)=O)[C@@H]1C	-	-	Mycobacterium avium complex	-	N-981 (HIV+)	MIC	0.8 µg/mL
CCCCCCCCCCCC(CCCCCCCCCCC)NC(=O)NC(CCC(=O)O)(CCC(=O)O)CCC(=O)O	-	-	Mycobacterium marinum	-	ATCC 927	MIC	424 µg/mL
CC1(C)N=C(N)N=C(N)N1OCCCOc1cc(Cl)c(Cl)cc1Cl	-	-	Mycobacterium avium complex	-	2242	MIC	2 µg/mL
CC1(C)S[C@@H]2[C@H](NC(=O)C(C(=O)O)c3ccccc3)C(=O)N2[C@H]1C(=O)O	-	-	Mycobacterium avium intracellulare	-	CIPT 140310023	MIC	50 µg/mL
COc1ccc(NC(=O)NNC(=O)c2ccncc2)cc1	7 d	broth dilution	Mycobacterium kansasii	-	My 6509/96	MIC100	>125 µM
CCOC(=O)CCCc1cn(CC2Cc3cn(-c4ccccc4)c4cccc(c34)C(=O)O2)nn1	-	visual reading	Mycobacterium spp.	-	MC2 6230	EC50	>100 µg/mL
Oc1cc(OCc2c(F)cccc2Cl)ccc1-c1n[nH]c(C(F)(F)F)c1-c1ccc(Cl)cc1	-	visual reading	Mycobacterium marinum	-	-	MIC	>50 µg/mL
O=C(NNC(=O)c1ccncc1)Nc1ccc(Cl)c(Cl)c1	21 d	broth dilution	Mycobacterium kansasii	-	My 6509/96	MIC100	125 µM
NC[C@H]1O[C@H](O[C@H]2[C@H](O)[C@@H](O[C@H]3O[C@H](CO)[C@@H](O)[C@H](N)[C@H]3O)[C@H](N)C[C@@H]2N)[C@H](O)[C@@H](O)[C@@H]1O	-	-	Mycobacterium avium intracellulare	-	CIPT 140310023	MIC	10 µg/mL
CC[C@H]1OC(=O)[C@H](C)[C@@H](O[C@H]2C[C@@](C)(OC)[C@@H](OC(C)=O)[C@H](C)O2)[C@H](C)[C@@H](O[C@@H]2O[C@H](C)C[C@H](N(C)C)[C@H]2OC(=O)NNC2CCCCC2)C(C)(O)C[C@@H](C)/C(=N\OCCCC2CCCCC2)[C@H](C)[C@@H](O)[C@]1(C)O	-	-	Mycobacterium avium complex	-	20039 (clarithromycin-susceptible)	MIC	0.39 µg/mL
CO[C@@]1(NC(=O)C(C(=O)O)c2ccc(O)cc2)C(=O)N2C(C(=O)O)=C(CSc3nnnn3C)CO[C@@H]21	-	-	Mycobacterium fortuitum	-	1047	MIC	>100 µg/mL
CCOC(=O)C[C@@H](C1O[C@@H]2OC(C)(C)O[C@@H]2[C@H]1OC)N(C(=O)Nc1ccc(Cl)cc1)C1CC1	-	-	Mycobacterium aurum	-	-	MIC	>25 µg/mL
CC(C)CCc1cn(CC2Cc3cn(-c4ccccc4)c4cccc(c34)C(=O)O2)nn1	-	visual reading	Mycobacterium spp.	-	MC2 6230	EC50	>100 µg/mL
CCCCCCCCCCCCCCCCCC(=O)NC(CCC(=O)O)(CCC(=O)O)CCC(=O)O	-	-	Mycobacterium chelonae	-	EO-P-1	MIC	27 µg/mL
CCC(C)NCCNC(C)C	-	-	Mycobacterium smegmatis	30 µg/mL	ATCC 607	inhibition	100%
CCCCCCCCCCCCCCO/N=C1\[C@H](C)CC(C)(O)[C@H](O[C@@H]2O[C@H](C)C[C@H](N(C)C)[C@H]2O)[C@@H](C)[C@H](OC2C[C@@](C)(OC)[C@@H](O)[C@H](C)O2)[C@@H](C)C(=O)O[C@H](CC)[C@@](C)(O)[C@H](O)[C@H]1C	-	-	Mycobacterium avium intracellulare	-	20066 (clarithromycin-susceptible)	MIC	>50 µg/mL
CO[C@H]1/C=C/O[C@@]2(C)Oc3c(C)c(O)c4c(=O)c(c5oc6cc(N7CCN(CC(C)C)CC7)cc(=O)c6nc5c4c3=C2O)NC(=O)/C(C)=C\C=C\[C@H](C)[C@H](O)[C@@H](C)[C@@H](O)[C@@H](C)[C@H](OC(C)=O)[C@@H]1C	-	-	Mycobacterium ulcerans	-	Isolate 94-886	MBC	0.012 µg/mL
CC(C)N=c1cc2n(-c3ccc(Cl)cc3)c3ccccc3nc-2cc1Nc1ccc(Cl)cc1	-	broth dilution	Mycobacterium bolletii	-	Clinical isolate	MIC50	≤0.5 µg/mL
O=C(NNC(=O)c1ccncc1)Nc1ccc(F)c(C(F)(F)F)c1	7 d	broth dilution	Mycobacterium kansasii	-	My 235/80	MIC100	125 µM
C=C(C)COc1ccc(-c2n[nH]c(C(F)(F)F)c2-c2ccc(OC)cc2)c(O)c1	-	visual reading	Mycobacterium marinum	-	-	MIC	>50 µg/mL
NCCS	-	broth dilution / visual reading	Mycobacterium abscessus	-	Clinical isolate MR27419N	MIC100	125 µg/mL
C[C@@H](O)[C@H]1C(=O)N2C(C(=O)O)=C(SCCN=CN)C[C@H]12	-	-	Mycobacterium avium intracellulare	-	CIPT 140310023	MIC	>10 µg/mL
CC[C@H]1OC(=O)[C@H](C)[C@@H](O[C@H]2C[C@@](C)(OC)[C@@H](OC(C)=O)[C@H](C)O2)[C@H](C)[C@@H](O[C@@H]2O[C@H](C)C[C@H](N(C)C)[C@H]2OC(=O)NN2CCCCC2)C(C)(O)C[C@@H](C)/C(=N\OCCCC2CCCCC2)[C@H](C)[C@@H](O)[C@]1(C)O	-	-	Mycobacterium avium complex	-	20092 (clarithromycin-resistant)	MIC	3.13 µg/mL
Clc1ccc(Nc2nnc(-c3ccncc3)o2)cc1Cl	7 d	broth dilution	Mycobacterium kansasii	-	My 235/80	MIC100	>125 µM
CCO/N=C1\[C@H](C)CC(C)(O)[C@H](O[C@@H]2O[C@H](C)C[C@H](N(C)C)[C@H]2O)[C@@H](C)[C@H](OC2C[C@@](C)(OC)[C@@H](O)[C@H](C)O2)[C@@H](C)C(=O)O[C@H](CC)[C@@](C)(O)[C@H](O)[C@H]1C	-	-	Mycobacterium avium complex	-	20096 (clarithromycin-resistant)	MIC	>50 µg/mL
CO[C@@]1(NC(=O)Cc2ccccc2)C(=O)N2C(C(=O)O)=C(COC(C)=O)CSC21	-	-	Mycobacterium fortuitum	-	1049	MIC	50 µg/mL
CC[C@H]1OC(=O)[C@H](C)[C@@H](OC2C[C@@](C)(OC)[C@@H](O)[C@H](C)O2)[C@H](C)[C@@H](O[C@@H]2O[C@H](C)C[C@H](N(C)C)[C@H]2O)C(C)(O)C[C@@H](C)/C(=N\OCCN(C)c2ccccc2)[C@H](C)[C@@H](O)[C@]1(C)O	-	-	Mycobacterium avium complex	-	20096 (clarithromycin-resistant)	MIC	25 µg/mL
CCOc1cc(O)c(-c2n[nH]c(C(F)(F)F)c2-c2ccccc2)cc1CC	-	visual reading	Mycobacterium marinum	-	-	MIC	>50 µg/mL
O=C(NNC(=O)c1ccncc1)Nc1ccc(Br)c(C(F)(F)F)c1	21 d	broth dilution	Mycobacterium kansasii	-	My 6509/96	MIC100	125 µM
CC1(C)N=C(N)N=C(N)N1OCCCOc1cc(Cl)c(Cl)cc1Cl	-	-	Mycobacterium avium complex	-	DW8	MIC	1 µg/mL
CC(C)NCCNc1ccccc1	-	-	Mycobacterium smegmatis	1000 µg/mL	ATCC 607	inhibition	0%
CCCCCCCCCCCCCCC(=O)NC(C)(CCC(=O)O)CCC(=O)O	-	-	Mycobacterium abscessus	-	AAy-P-1	MIC	144 µg/mL
O=C(NNC(=O)c1ccncc1)Nc1c(Cl)cc(Cl)cc1Cl	21 d	broth dilution	Mycobacterium kansasii	-	My 6509/96	MIC100	125 µM
C[C@@H]1CN(c2c(F)c(N)c3c(=O)c(C(=O)O)cn(C4CC4)c3c2F)C[C@H](C)N1	-	-	Mycobacterium avium complex	-	N-961 (HIV+)	MIC	1 µg/mL
O=C(NCc1ccc(N2CCOCC2)cc1C(F)(F)F)c1c(Cl)nc2ccccn12	-	fluorescence	Mycobacterium ulcerans	-	-	MIC50	>10 µg/mL
C[C@@H](O)[C@H]1C(=O)N2C(C(=O)O)=C(SCCN=CN)C[C@H]12	-	-	Mycobacterium fortuitum	-	AO5	MIC	6.25 µg/mL
CO[C@H]1/C=C/O[C@@]2(C)Oc3c(C)c(O)c4c(O)c(c(/C=N/N5CCN(C6CCCC6)CC5)c(O)c4c3C2=O)NC(=O)/C(C)=C\C=C\[C@H](C)[C@H](O)[C@@H](C)[C@@H](O)[C@@H](C)[C@H](OC(C)=O)[C@@H]1C	-	-	Mycobacterium avium intracellulare	-	16-Feb	MIC	0.5 µg/mL
CCCCCCCCCCCCCCCCCCCCCCCC(=O)NC(CCC(=O)O)(CCC(=O)O)CCC(=O)O	-	-	Mycobacterium abscessus	-	AAy-P-1	MIC	54 µg/mL
Cc1nc2ccc(Br)cn2c1C(=O)NCc1ccc(N(C)C)cc1	-	fluorescence	Mycobacterium ulcerans	-	-	MIC50	0.01–0.1 µg/mL
CCO/N=C1\[C@H](C)CC(C)(O)[C@H](O[C@@H]2O[C@H](C)C[C@H](N(C)C)[C@H]2O)[C@@H](C)[C@H](O[C@H]2C[C@@](C)(OC)[C@@H](OC(C)=O)[C@H](C)O2)[C@@H](C)C(=O)O[C@H](CC)[C@@](C)(O)[C@H](O)[C@H]1C	-	-	Mycobacterium avium complex	-	20092 (clarithromycin-resistant)	MIC	>50 µg/mL
C=C(C)COc1ccc(-c2n[nH]c(C(F)(F)F)c2-c2ccccc2)c(O)c1	-	visual reading	Mycobacterium marinum	-	-	MIC	>50 µg/mL
CCc1nc2ccc(Cl)cn2c1C(=O)NCc1ccc(N(C)C)cc1	-	fluorescence	Mycobacterium ulcerans	-	-	MIC50	0.001–0.01 µg/mL
CCCCCCCCCCCCCCCCCCC(=O)NC(C)(CCC(=O)O)CCC(=O)O	-	-	Mycobacterium smegmatis	-	mc155	MIC	9 µg/mL
CC(=O)c1cccc(N2C(=O)C[C@@H](C3OC4OC(C)(C)OC4[C@H]3Oc3ccccc3)N(C3CC3)C2=O)c1	-	-	Mycobacterium aurum	-	-	MIC	>25 µg/mL
CO[C@H]1/C=C/O[C@@]2(C)Oc3c(C)c(O)c4c(O)c(c5c(c4c3C2=O)NC2(CCN(CC(C)C)CC2)N=5)=NC(=O)/C(C)=C\C=C\[C@H](C)[C@H](O)[C@@H](C)[C@@H](O)[C@@H](C)[C@H](OC(C)=O)[C@@H]1C	-	-	Mycobacterium avium intracellulare	-	CIPT 140310021	MIC	0.05 µg/mL
CC(C)(C)NCCCNC(C)(C)C	-	-	Mycobacterium smegmatis	-	ATCC 607	EC50	>1000 µg/mL
CO[C@H]1/C=C/O[C@@]2(C)Oc3c(C)c(O)c4c(=O)c(c5oc6cc(N7CCN(CC(C)C)CC7)cc(=O)c6nc5c4c3=C2O)NC(=O)/C(C)=C\C=C\[C@H](C)[C@H](O)[C@@H](C)[C@@H](O)[C@@H](C)[C@H](OC(C)=O)[C@@H]1C	-	-	Mycobacterium avium complex	-	N-978 (HIV+)	MIC	0.0313 µg/mL
CCCCCCCCCCCCCCCCO/N=C1\[C@H](C)CC(C)(O)[C@H](O[C@@H]2O[C@H](C)C[C@H](N(C)C)[C@H]2O)[C@@H](C)[C@H](OC2C[C@@](C)(OC)[C@@H](O)[C@H](C)O2)[C@@H](C)C(=O)O[C@H](CC)[C@@](C)(O)[C@H](O)[C@H]1C	-	-	Mycobacterium avium intracellulare	-	20066 (clarithromycin-susceptible)	MIC	>50 µg/mL
CCCCCCCCCCCCN(C(=O)Nc1cccc(C(C)=O)c1)[C@@H](CC(=O)OCC)C1O[C@@H]2OC(C)(C)O[C@@H]2[C@H]1Oc1ccccc1	-	-	Mycobacterium aurum	-	-	MIC	>25 µg/mL
CO[C@@]1(NC(=O)CCCC(N)C(=O)O)C(=O)N2C(C(=O)O)=C(COC(C)=O)CSC21	-	-	Mycobacterium fortuitum	-	1049	MIC	>100 µg/mL
CCc1nc2ccc(Cl)cn2c1C(=O)NCc1ccc(-c2ccccc2)cc1	-	fluorescence	Mycobacterium ulcerans	-	-	MIC50	0.001–0.01 µg/mL
CO[C@@H]1C2OC(C)(C)OC2OC1[C@@H]1CC(=O)N(Cc2ccccc2)C(=O)N1C1CC1	-	-	Mycobacterium aurum	-	-	MIC	>25 µg/mL
CC(C)CCC[C@@H](C)[C@H]1CC[C@H]2[C@@H]3CC[C@H]4C[C@H](NC(=O)NC(CCC(=O)O)(CCC(=O)O)CCC(=O)O)CC[C@]4(C)[C@H]3CC[C@]12C	-	-	Mycobacterium marinum	-	ATCC 927	MIC	69 µg/mL
CN1CCCc2cc(CNC(=O)c3c(Cl)nc4ccccn34)ccc21	-	fluorescence	Mycobacterium ulcerans	-	-	MIC50	0.01–0.1 µg/mL